Here are results for one sequence from publication PMC5720831.

Where a protein sequence is shown, tags need not be part of it.

The series has as its target T1, DciA(Mtb) W113A W133A (UniProt P9WFL1).
T1 sequence (looked up): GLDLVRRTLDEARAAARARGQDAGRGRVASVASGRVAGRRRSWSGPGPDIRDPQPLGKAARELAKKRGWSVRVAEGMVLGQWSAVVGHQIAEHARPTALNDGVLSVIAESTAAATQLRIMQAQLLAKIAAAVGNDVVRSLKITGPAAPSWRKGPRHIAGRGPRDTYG
Description: EMSA. The settings on record: 50 mM Tris-HCl pH 7, 150 mM NaCl, 1 mM EDTA, 1 mM DTT, 10 ug BSA, 12 ul, 20 min at room temperature, recombinant protein, residues 21-187, label: 32P 5' end (T4 PNK), probe letters rebuilt from the primers and the genome. (In EMSA bound probe runs differently from free probe, usually more slowly.)

Consider “GCATCCGTCAGCGCTCCAAGCGCTAGCACGGCGTGTTCTTCCGACAACGTTCTTAAAAAAACTTCTCTCTCCCAGGTCACACCAGTCACAGAGATTGGCTGTGAGTGTCGCTGTGCACAAACCGCGCACAGACTCATACAGTCCCGGCGGTTCCGTTCACAACCCACGCCTCATCCCCACCGACCCAACACACACCCCACAGTCATCGCCACCGTCATCCACAACTCCGACCGACGTCGACCTGCACCAAGACCAGACTGTCCCCAAACTGCACACCCTCTAATACTGTTACCGAGATTTCTTCGTCGTTTGTTCTTGGAAAGACAGCGCTGGGGATCGTTCGCTGGATACCACCCGCATAACTGGCTCGTCGCGGTGGGTCAGAGGTCAATGATGAACTTTCAAGTTGACGTGAGAAGCTCTACGGTTGTTGTTCGACTGCTGTTGCGGCCGTCGTGGCGGGTCACGCGTCATGGGCATTCGTCGTTGGCAGTCCCCACGCTAGCGGGGCGCTAGCCACGGGATCGAACTCATCGTGAGGTGAAAGGGCGCA (double strand) [oriC(Mtb) 553 bp]”, for which the binding result is on record as “binds”.
